Measured values from several laboratories, pooled; numbers as filed in NIAID ChemDB.

Shared fields: tests in culture; agent: Candida albicans; read-out: MIC

a–b is a range or a potency band.

{"structure": "COc1ccc(-c2oc3cc(OC)cc(O)c3c(=O)c2OC)cc1", "strain or isolate": "ATCC 10231", "value": "12.5 µg/mL"}
{"structure": "Nc1nc2c(sc(=S)n2-c2ccccc2)c(=O)n1-c1ccccc1", "strain or isolate": "DSM 70443", "value": "50 µg/mL"}
{"structure": "CCc1ccc(-c2nc3cc(NC(=O)C4CCCCC4)ccc3o2)cc1", "value": "50 µg/mL"}
{"structure": "Cc1ccc(-c2nn(-c3ccccc3)cc2/C=N/n2c(C)nc3c(sc(=S)n3-c3ccc(C)cc3)c2=O)cc1", "value": ">200 µg/mL"}
{"structure": "Clc1ccc(OCC(Cn2ccnc2)c2ccc(Br)cc2)cc1", "value": "100 µg/mL"}
{"structure": "O=C(CCC1CCCCC1)Nc1ccc2oc(-c3ccccc3)nc2c1", "value": "25 µg/mL"}
{"structure": "Clc1ccc(OCCC(Cn2ccnc2)c2ccc(Cl)cc2Cl)cc1", "value": "10 µg/mL"}
{"structure": "O=c1[nH]n2c(-c3cc(-c4ccccc4)no3)nnc2c2ccccc12", "value": "25 µg/mL"}
{"structure": "C[C@H]1[C@H](O)[C@@H](C)/C=C/C=C/C=C/C=C/C=C/C=C/C=C/[C@H](O[C@@H]2O[C@H](C)[C@@H](O)[C@H](N)[C@@H]2O)C[C@@H]2O[C@](O)(C[C@@H](O)C[C@@H](O)CC[C@H](O)[C@@H](O)C[C@@H](O)CC(=O)O[C@H]1C)C[C@H](O)[C@H]2C(=O)O", "strain or isolate": "ATCC64551", "value": "0.25 µg/mL"}
{"structure": "Cc1c(Sc2ccccc2)[n+](=O)c2cc(C(F)(F)F)ccc2n1[O-]", "strain or isolate": "Clinical isolate 11", "value": "62.5 µg/mL"}
{"structure": "Cc1ccc(-c2nn(-c3ccccc3)cc2/C=N/N=c2\\sc3c(=O)[nH]c(=S)[nH]c3n2-c2ccccc2)cc1", "value": ">200 µg/mL"}
{"structure": "CSc1nc2c(sc(=S)n2-c2ccccc2)c(=O)n1-c1ccccc1", "strain or isolate": "DSM 70443", "value": "60 µg/mL"}
{"structure": "Cc1ccc(C2=NNC(c3nnc4c5ccccc5c(=O)[nH]n34)C2)cc1", "value": ">200 µg/mL"}
{"structure": "CC(C)=CCc1ccc(O)c2oc3cc(O)cc(O)c3c(=O)c12", "value": ">25 µg/mL"}
{"structure": "Cc1ccc(NC2N3N=C(c4ccc(C)cc4)CC3=C3N4NC(=O)c5ccccc5C4=NN32)cc1", "value": ">200 µg/mL"}
{"structure": "O=C(Nc1c(F)cccc1F)OCCCN1CCN(c2nc3ccccc3s2)CC1", "strain or isolate": "CY1124", "value": "0.71 µg/mL"}
{"structure": "COc1cc(O)c2c(=O)c(OC)c(-c3ccc(O)c(OC)c3)oc2c1", "strain or isolate": "ATCC 10231", "value": "3.1 µg/mL"}
{"structure": "Clc1ccc(C(COc2ccccc2Cl)Cn2ccnc2)cc1", "value": "100 µg/mL"}
{"structure": "Cc1ccc(C2=CC(c3nnc4c5ccccc5c(=O)[nH]n34)=C(C#N)/C(=C/C#N)N2)cc1", "value": ">200 µg/mL"}
{"structure": "CCOc1cc2c(cc1F)n([O-])c(C)c(Cl)[n+]2=O", "strain or isolate": "Clinical isolate 5", "value": "31.25 µg/mL"}
{"structure": "CC1=C(CCc2ccco2)[C@@]2(C)CCC[C@]3(C)C(=O)O[C@H](C1=O)C32", "strain or isolate": "ATCC 10231", "value": "3.1 µg/mL"}
{"structure": "N#C/C=C1\\NC(c2ccccc2)=CC(c2nnc3c4ccccc4c(=O)[nH]n23)=C1C#N", "value": ">200 µg/mL"}
{"structure": "O=[n+]1c(Sc2ccccc2)c(CBr)n([O-])c2ccccc21", "strain or isolate": "Clinical isolate 21", "value": "31.25 µg/mL"}
{"structure": "Clc1ccc(C(CCCOc2ccc(Br)cc2)Cn2ccnc2)c(Cl)c1", "value": ">100 µg/mL"}
{"structure": "Nc1[nH]c(=O)ncc1F", "strain or isolate": "3532-K31", "value": "1.56 µg/mL"}
{"structure": "O[C@](Cn1cncn1)(Cn1cnc(/C=C/c2ccc(OCC(F)(F)C(F)F)cc2)n1)c1ccc(F)cc1F", "strain or isolate": "10 isolates fluconazole-resistant", "value": "0.03–1 µg/mL"}
{"structure": "O=c1c2sc(=S)n(-c3ccccc3)c2nc(N=P(c2ccccc2)(c2ccccc2)c2ccccc2)n1-c1ccccc1", "strain or isolate": "DSM 70443", "value": ">200 µg/mL"}
{"structure": "CCc1ccc(-c2nc3cc(NC(=O)CCC4CCCCC4)ccc3o2)cc1", "value": "50 µg/mL"}
{"structure": "Clc1ccc(C(CCCOc2ccccc2)Cn2ccnc2)c(Cl)c1", "value": ">100 µg/mL"}
{"structure": "Cc1c(Sc2ccccc2)[n+](=O)c2cc(Cl)ccc2n1[O-]", "strain or isolate": "Clinical isolate 6", "value": "15.6 µg/mL"}
{"structure": "Cc1ccccc1-n1c(=S)sc2c(=O)n(-c3ccccc3)c(=S)[nH]c21", "strain or isolate": "DSM 70443", "value": "90 µg/mL"}
{"structure": "Cc1ccc(-c2nn(-c3ccccc3)cc2/C=N/N=c2\\sc3c(=O)[nH]c(=S)[nH]c3n2-c2ccc(C)cc2)cc1", "value": "50 µg/mL"}
{"structure": "CCOc1cc2c(cc1F)n([O-])c(C)c(S(=O)(=O)c1ccccc1)[n+]2=O", "strain or isolate": "Clinical isolate 21", "value": "15.6 µg/mL"}
{"structure": "CCSc1nc2c(sc(=S)n2-c2ccccc2C)c(=O)n1-c1ccccc1", "strain or isolate": "DSM 70443", "value": "160 µg/mL"}
{"structure": "CC(C)=CCc1c(O)ccc2oc3cc(O)cc(O)c3c(=O)c12", "value": ">25 µg/mL"}
{"structure": "Cc1ccc(-c2nn(-c3ccccc3)cc2/C=N/n2cnc3c(sc(=S)n3-c3ccccc3)c2=O)cc1", "value": ">200 µg/mL"}
{"structure": "O=c1c2sc(=S)n(-c3ccccc3)c2nc(Cl)n1-c1ccccc1", "strain or isolate": "DSM 70443", "value": "70 µg/mL"}
{"structure": "Cc1ccc(-c2nn(-c3ccccc3)cc2/C=N/N=c2\\sc3c(=O)[nH]cnc3n2-c2ccc(C)cc2)cc1", "value": "100 µg/mL"}
{"structure": "Cc1ccc(C(=O)CC(SCC(=O)O)c2nnc3c4ccccc4c(=O)[nH]n23)cc1", "value": ">200 µg/mL"}
{"structure": "CCc1ccc(-c2nc3cc(NC(=O)CC4CCCCC4)ccc3o2)cc1", "value": "25 µg/mL"}
{"structure": "Clc1ccc(OCC(Cn2ccnc2)c2ccc(Cl)cc2)cc1", "value": ">100 µg/mL"}
{"structure": "O=c1c2cc(O)ccc2oc2cc(O)cc(O)c12", "value": ">25 µg/mL"}
{"structure": "Clc1ccc(C(COc2ccc(Br)cc2)Cn2ccnc2)c(Cl)c1", "value": "100 µg/mL"}
{"structure": "Cc1cccc(-n2c(=S)[nH]c3c(sc(=S)n3-c3ccccc3)c2=O)c1", "strain or isolate": "DSM 70443", "value": "90 µg/mL"}

The first 6 rows once more:

{"structure": "COc1ccc(-c2oc3cc(OC)cc(O)c3c(=O)c2OC)cc1", "strain or isolate": "ATCC 10231", "value": "12.5 µg/mL"}
{"structure": "Nc1nc2c(sc(=S)n2-c2ccccc2)c(=O)n1-c1ccccc1", "strain or isolate": "DSM 70443", "value": "50 µg/mL"}
{"structure": "CCc1ccc(-c2nc3cc(NC(=O)C4CCCCC4)ccc3o2)cc1", "value": "50 µg/mL"}
{"structure": "Cc1ccc(-c2nn(-c3ccccc3)cc2/C=N/n2c(C)nc3c(sc(=S)n3-c3ccc(C)cc3)c2=O)cc1", "value": ">200 µg/mL"}
{"structure": "Clc1ccc(OCC(Cn2ccnc2)c2ccc(Br)cc2)cc1", "value": "100 µg/mL"}
{"structure": "O=C(CCC1CCCCC1)Nc1ccc2oc(-c3ccccc3)nc2c1", "value": "25 µg/mL"}

Neighbouring rows are from separate reports.